Anti-infective test results gathered from many reports (values: NIAID ChemDB through PubChem).

All rows: tests in culture

Lines come from different laboratories, so protocols vary. MIC50, MIC90 and the like: level of inhibition, or share of isolates inhibited. An empty or dashed field is not shown. ECn: concentration that inhibits the pathogen or its effect by n%. Inhibition is in % at the dose shown (toxicity tests: loss of growth or viability).

| structure | dose | read-out | cells | organism | method | strain | result |
|---|---|---|---|---|---|---|---|
| Oc1ccccc1N=Cc1ccc(O)c(O)c1O | - | MIC99 | - | Cryptococcus gattii | - | 135L/03 | 11.3 µg/mL |
| Nc1ccccc1S(=O)(=O)O | 50 µg/mL | inhibition | Human amnion AV3 cells | Herpes simplex virus | cytopathic effect | - | 10% |
| O=C(Nc1cc(C(F)(F)F)cc(C(F)(F)F)c1)NN(C(=O)Nc1cc(C(F)(F)F)cc(C(F)(F)F)c1)c1nc2ccccc2s1 | - | MIC | - | Escherichia coli | - | ES142 | >300 µM |
| CCc1cn([C@@H]2O[C@H](CO)[C@@H](O)[C@@H]2O)c(=O)[nH]c1=O | 10 µg/mL | inhibition | HELF | Varicella zoster virus | plaque count | KANNO | 0% |
| O=C(Nc1cccc(C2=NCCN2)c1)Nc1cccc(C2=NCCN2)c1 | - | MIC | - | Klebsiella pneumoniae | - | KL21 | 300 µM |
| OC[C@H]1O[C@@H](n2c(Br)nc3cc(Cl)c(Cl)cc32)[C@H](O)[C@@H]1O | - | EC50 | - | Human cytomegalovirus | virus yield | D10 (D341E) | <2 µM |
| O=c1[nH]c(=O)n([C@@H]2O[C@H](CO)[C@@H](O)[C@@H]2O)cc1/C=C/Br | 0.0001 µg/mL | inhibition | HELF | Varicella zoster virus | plaque count | Asahikawa | 22% |
| CCc1nc2ccccc2c(=O)n1NC(=O)Nc1cc(C(F)(F)F)cc(C(F)(F)F)c1 | - | MIC | - | Escherichia coli | - | ES142 | >300 µM |
| CC(C)(O)c1cn(-c2ccc([N+](=O)[O-])cc2)nn1 | 2048 µg/mL | inhibition | - | Candida parapsilosis | broth dilution | URM 4818 | 0% |
| O=C(NNC(=O)Nc1cc(C(F)(F)F)cc(C(F)(F)F)c1)Nc1ccc(C(F)(F)F)cc1 | - | MIC | - | Escherichia coli | - | ES142 | >300 µM |
| CCCC(CCC)C(NC(C)=O)C1CC(C(=O)O)CC1N=C(N)N | - | EC50 | MDCK | Influenza A virus | - | Influenza A/Virginia/2/88R (H3N2) | 0.05 µM |
| CCC(CC)[C@H](NC(C)=O)[C@@H]1[C@H](O)[C@@H](C(=O)O)C[C@H]1N=C(N)N | - | EC50 | MDCK | Influenza A virus | - | H3N2 A/X-31 | 0.01 µM |
| CC(C)(O)c1cn(-c2ccc3ccccc3c2)nn1 | 2048 µg/mL | inhibition | - | Candida tropicalis | broth dilution | URM 1150 | 0% |
| O=S(=O)(O)c1ccc2cc(O)c(S(=O)(=O)O)cc2c1 | 10 µg/mL | inhibition | Human conjunctiva cells | Herpes simplex virus | cytopathic effect | - | 0% |
| CCC(CC)[C@H](NC(C)=O)[C@@H]1C[C@@H](C(=O)O)C[C@H]1N=C(N)N | - | EC50 | MDCK | Influenza A virus | - | Influenza A/Victoria/3/75 (H3N2) | 0.06 µM |
| Cc1nc(NCCCCNc2ccnc3cc(Cl)ccc23)nc(-c2ccccc2)c1C(=O)OC(C)C | - | MIC99 | - | Cryptococcus gattii | - | 547/OTTI-97-PI-10 | 16 µg/mL |
| Nc1nc2c(ncn2COCCO)c(=O)[nH]1 | 1 µg/mL | inhibition | HELF | Varicella zoster virus | plaque count | HIRAI | 92% |
| CC(C)N=C(N)/N=C(\N)NOCCCOc1cc(Cl)c(Cl)cc1Cl | - | MIC | - | Mycobacterium avium complex | - | 690 | 32 µg/mL |
| CC(C)(O)c1cn(-c2cccc3ccccc23)nn1 | 2048 µg/mL | inhibition | - | Candida albicans | broth dilution | URM 4606 | 0% |
| Cn1cc(C(=O)NCc2ccc(Cl)cc2)c(=O)c2cc(CN3CCOCC3)ccc21 | 1.8 µM | inhibition | HFF | Varicella zoster virus | plaque count | DE varicella isolate | 90% |
| Nc1nc2c(ncn2COC(CO)CO)c(=O)[nH]1 | - | EC50 | - | Human cytomegalovirus | plaque count | VR4760 (ganciclovir-resistant) | 40 µM |
| CCO/N=C/c1ccc(OCCC2CCN(c3ccc(Cl)nn3)CC2)cc1 | - | EC50 | KB | Rhinovirus | neutral red | thompson (ICAM-1 receptor group 6 | 0.003 µM |
| NCS(=O)(=O)O | 10 µg/mL | inhibition | Human embryonic lung cells | Adenovirus | cytopathic effect | TYPE 3 | 0% |
| CCCC(CCC)C(NC(C)=O)C1C(N=C(N)N)CC(C(=O)O)C1O | - | EC50 | MDCK | Influenza B virus | - | Panama/45/90 | 0.8 µM |
| CCC(CC)O[C@@H]1C=C(C(=O)O)C[C@H](N)[C@H]1NC(C)=O | - | EC50 | MDCK | Influenza A virus | plaque count | Influenza A H3N2 isolate C26C | 5.1 µg/mL |
| Cc1cn([C@@H]2O[C@H](CO)[C@@H](O)[C@@H]2F)c(=O)nc1N | 0.001 µg/mL | inhibition | HELF | Varicella zoster virus | plaque count | HIRAI | 4% |
| Nc1ccc2cc([N+](=O)[O-])cc(S(=O)(=O)[O-])c2c1 | 5 µg/mL | inhibition | Human amnion AV3 cells | Rhinovirus | cytopathic effect | - | 0% |
| O=C(NCc1ccc(Cl)cc1)c1c[nH]c2ccc(C#CCO)cc2c1=O | - | EC50 | - | Simian varicella-zoster virus | plaque count | - | 2.4 µM |
| O=S(=O)([O-])c1ccc(O)cc1 | 50 µg/mL | inhibition | Human embryonic lung cells | Adenovirus | cytopathic effect | TYPE 3 | 0% |
| C=CCc1ccc(OC)c(OC)c1 | - | MIC90 | - | Candida tropicalis | turbidity | 2960 | 340 µg/mL |
| Nc1ccc(S(=O)(=O)[O-])c2c(S(=O)(=O)[O-])ccc(O)c12 | 10 µg/mL | inhibition | Human embryonic lung cells | Adenovirus | cytopathic effect | TYPE 3 | 20% |
| CCOC(=O)/C=C/[C@H](C[C@@H]1CCNC1=O)NC(=O)[C@@H](CC(=O)[C@@H](NC(=O)c1cc(C)on1)C(C)C)Cc1ccc(F)cc1 | - | EC50 | OHIO HELA-I | Rhinovirus | cytopathic effect / visual reading | Isolate 44 | 0.02 µg/mL |
| CCOC(=O)c1c(C)nc(NCCCCNc2ccnc3cc(Cl)ccc23)nc1-c1ccccc1 | - | MIC99 | - | Cryptococcus gattii | - | 196L/03 | 8 µg/mL |
| O=S(=O)([O-])c1ccc(NS(=O)(=O)c2ccccc2)c2c(S(=O)(=O)[O-])cccc12 | 50 µg/mL | inhibition | Human conjunctiva cells | Herpes simplex virus | cytopathic effect | - | 0% |
| Oc1ccccc1C=Nc1ccccc1O | - | MIC99 | - | Cryptococcus gattii | - | 29/10893 | 8 µg/mL |
| Cc1ccc(-n2cc(C(C)(C)O)nn2)cc1C | 2048 µg/mL | inhibition | - | Candida krusei | broth dilution | URM 1059 | 0% |
| Cc1cn([C@@H]2O[C@H](CO)[C@@H](O)[C@@H]2O)c(=O)[nH]c1=O | 0.1 µg/mL | inhibition | HELF | Varicella zoster virus | plaque count | Kawaguchi | 31% |
| Oc1cccc(C=Nc2ccccc2O)c1 | - | MIC99 | - | Cryptococcus neoformans | - | ATCC 24067 | 2.8 µg/mL |
| Cc1ccc(C(=O)Nc2ccc(S(=O)(=O)O)c3cc(S(=O)(=O)O)cc(S(=O)(=O)O)c23)cc1NC(=O)c1cccc(NC(=O)Nc2cccc(C(=O)Nc3cc(C(=O)Nc4ccc(S(=O)(=O)O)c5cc(S(=O)(=O)O)cc(S(=O)(=O)O)c45)ccc3C)c2)c1 | 10 µg/mL | inhibition | Human amnion AV3 cells | Adenovirus | cytopathic effect | TYPE 3 | 0% |

The last 5 rows once more:

structure,dose,read-out,cells,organism,method,strain,result
Oc1ccccc1C=Nc1ccccc1O,-,MIC99,-,Cryptococcus gattii,-,29/10893,8 µg/mL
Cc1ccc(-n2cc(C(C)(C)O)nn2)cc1C,2048 µg/mL,inhibition,-,Candida krusei,broth dilution,URM 1059,0%
Cc1cn([C@@H]2O[C@H](CO)[C@@H](O)[C@@H]2O)c(=O)[nH]c1=O,0.1 µg/mL,inhibition,HELF,Varicella zoster virus,plaque count,Kawaguchi,31%
Oc1cccc(C=Nc2ccccc2O)c1,-,MIC99,-,Cryptococcus neoformans,-,ATCC 24067,2.8 µg/mL
Cc1ccc(C(=O)Nc2ccc(S(=O)(=O)O)c3cc(S(=O)(=O)O)cc(S(=O)(=O)O)c23)cc1NC(=O)c1cccc(NC(=O)Nc2cccc(C(=O)Nc3cc(C(=O)Nc4ccc(S(=O)(=O)O)c5cc(S(=O)(=O)O)cc(S(=O)(=O)O)c45)ccc3C)c2)c1,10 µg/mL,inhibition,Human amnion AV3 cells,Adenovirus,cytopathic effect,TYPE 3,0%